Measured values from several laboratories, pooled; numbers as filed in NIAID ChemDB.

Common to all: tests in culture; agent: Mycobacterium avium complex

A number after MIC or MFC names an inhibition level or a share of isolates.

compound,strain,measure,value
COc1ccccc1CSc1ccncc1,NJ211,MIC,>12.8 µg/mL
CC[C@H]1OC(=O)[C@H](C)[C@@H](O[C@H]2C[C@@](C)(OC)[C@@H](O)[C@H](C)O2)[C@H](C)[C@@H](O[C@@H]2O[C@H](C)C[C@H](N(C)C)[C@H]2O)[C@](C)(O)C[C@@H](C)C(=O)[C@H](C)[C@@H](O)[C@]1(C)O,28 strains,MIC50,32 µg/mL
CC[C@H]1OC(=O)[C@H](C)[C@@H](O[C@H]2C[C@@](C)(OC)[C@@H](O)[C@H](C)O2)[C@H](C)[C@@H](O[C@@H]2O[C@H](C)C[C@H](N(C)C)[C@H]2O)[C@](C)(O)C[C@@H](C)CN(C)[C@H](C)[C@@H](O)[C@]1(C)O,ATCC 35718,MIC,>8 µg/mL
C[C@@H]1CN(c2c(F)c(N)c3c(=O)c(C(=O)O)cn(C4CC4)c3c2F)C[C@H](C)N1,N-966 (HIV+),MIC,1 µg/mL
O=c1nc(SCc2cccc3ccccc23)c2[nH]cnc2[nH]1,NJ211,MIC,>12.8 µg/mL
C[C@H]1C[C@H](N)CN1c1cc2c(cc1F)c(=O)c(C(=O)O)cn2-c1ccc(F)cc1F,ATCC 35718,MIC,>8 µg/mL
CN[C@@H]1[C@@H](O)C(O[C@@H]2[C@@H](O)[C@H](OC3O[C@H](CN)[C@@H](O)[C@H](O)[C@H]3O)[C@@H](N)C[C@H]2NC(=O)[C@@H](O)CN)OC[C@]1(C)O,J16,MIC,12.5 µg/mL
CO[C@H]1/C=C/O[C@@]2(C)Oc3c(C)c(O)c4c(=O)c(c5oc6cc(N7CCN(CC(C)C)CC7)cc(=O)c6nc5c4c3=C2O)NC(=O)/C(C)=C\C=C\[C@H](C)[C@H](O)[C@@H](C)[C@@H](O)[C@@H](C)[C@H](OC(C)=O)[C@@H]1C,N-966 (HIV+),MIC,0.05 µg/mL
CC[C@H]1OC(=O)[C@H](C)[C@@H](OC(=O)Cc2ccccc2)[C@H](C)[C@@H](O[C@@H]2O[C@H](C)C[C@H](N(C)C)[C@H]2O)C(C)(O)C[C@@H](C)/C(=N\OCCCOc2ccccc2)[C@H](C)[C@@H](O)[C@]1(C)O,20092 (clarithromycin-resistant),MIC,6.25 µg/mL
CC[C@H]1OC(=O)[C@H](C)[C@@H](O[C@H]2C[C@@](C)(OC)[C@@H](O)[C@H](C)O2)[C@H](C)[C@@H](O[C@@H]2O[C@H](C)C[C@H](N(C)C)[C@H]2O)[C@](C)(OC)C[C@@H](C)C(=O)[C@H](C)[C@@H](O)[C@]1(C)O,N-444,MIC,8 µg/mL
CO[C@H]1/C=C/O[C@@]2(C)Oc3c(C)c(O)c4c(O)c(c5c(c4c3C2=O)NC2(CCN(CC(C)C)CC2)N=5)=NC(=O)/C(C)=C\C=C\[C@H](C)[C@H](O)[C@@H](C)[C@@H](O)[C@@H](C)[C@H](OC(C)=O)[C@@H]1C,N-980 (HIV+),MIC,0.125 µg/mL
CC[C@H]1OC(=O)[C@H](C)[C@@H](OC2C[C@@](C)(OC)[C@@H](O)[C@H](C)O2)[C@H](C)[C@@H](O[C@@H]2O[C@H](C)C[C@H](N(C)C)[C@H]2O)C(C)(O)C[C@@H](C)/C(=N\OCCOc2ccccc2)[C@H](C)[C@@H](O)[C@]1(C)O,20096 (clarithromycin-resistant),MIC,25 µg/mL
CC[C@H]1OC(=O)C[C@@H](O)[C@H](C)[C@@H](O[C@@H]2O[C@H](C)[C@H](O)[C@H](N(C)C)[C@H]2O)[C@@H](CC=O)C[C@@H](C)C(=O)/C=C/C(C)=C/[C@@H]1C,28 strains,MIC50,≥64 µg/mL
c1ccc(CSc2ccncc2)cc1,NJ211,MIC,>12.8 µg/mL
CCC(=O)O[C@H]1[C@H](C)OC(O[C@H]2[C@H](C)[C@@H](O[C@@H]3O[C@H](C)C[C@H](N(C)C)[C@H]3O)C(C)(O)C[C@@H](C)/C(=N\OCCCOc3ccccc3)[C@H](C)[C@@H](O)[C@](C)(O)[C@@H](CC)OC(=O)[C@@H]2C)C[C@@]1(C)OC,20092 (clarithromycin-resistant),MIC,0.78 µg/mL
CC[C@H]1OC(=O)[C@H](C)[C@@H](O[C@H]2C[C@@](C)(OC)[C@@H](O)[C@H](C)O2)[C@H](C)[C@@H](O[C@@H]2O[C@H](C)C[C@H](N(C)C)[C@H]2O)[C@](C)(O)C[C@@H](C)C(NCCOC)[C@H](C)[C@@H](O)[C@]1(C)O,28 strains,MIC50,≥64 µg/mL
CC[C@H]1OC(=O)[C@H](C)[C@@H](O[C@H]2C[C@@](C)(OC)[C@@H](O)[C@H](C)O2)[C@H](C)[C@@H](O[C@@H]2O[C@H](C)C[C@H](N(C)C)[C@H]2O)[C@](C)(O)C[C@@H](C)C(=O)[C@H](C)[C@@H](O)[C@]1(C)O,25 isolates,MBC90,>8 µg/mL
Cc1ccc(CSc2nc(=O)[nH]c3nc[nH]c23)cc1,NJ211,MIC,>12.8 µg/mL
CC[C@H]1OC(=O)C[C@@H](O)[C@H](C)[C@@H](O[C@@H]2O[C@H](C)[C@H](O[C@H]3C[C@@](C)(O)[C@@H](O)[C@H](C)O3)[C@H](N(C)C)[C@H]2O)[C@@H](CC=O)C[C@@H](C)C(=O)/C=C/C(C)=C/[C@@H]1CO,28 strains,MIC90,32 µg/mL
COc1ccc(CSc2ccncc2)cc1,NJ211,MIC,>12.8 µg/mL
NNC(=O)c1ccncc1,N-961 (HIV+),MIC,2 µg/mL
CC[C@H]1OC(=O)[C@H](C)[C@@H](OC(=O)Cc2ccncc2)[C@H](C)[C@@H](O[C@@H]2O[C@H](C)C[C@H](N(C)C)[C@H]2O)C(C)(O)C[C@@H](C)/C(=N\OCCCOc2ccccc2)[C@H](C)[C@@H](O)[C@]1(C)O,20039 (clarithromycin-susceptible),MIC,6.25 µg/mL
CC[C@H]1OC(=O)C[C@@H](O)[C@H](C)[C@@H](O[C@@H]2O[C@H](C)[C@H](O[C@H]3C[C@@](C)(O)[C@@H](O)[C@H](C)O3)[C@H](N(C)C)[C@H]2O)[C@@H](CCOc2ccccc2)C[C@@H](C)C(=O)/C=C/C(C)=C/[C@@H]1COC1O[C@H](C)[C@@H](O)[C@@H](OC)[C@H]1OC,28 strains,MIC50,≥64 µg/mL
Cc1ccc(CSc2ccncc2)cc1,NJ211,MIC,>12.8 µg/mL
CC1COc2c(N3CCN(C)CC3)c(F)cc3c(=O)c(C(=O)O)cn1c23,25 isolates,MIC50,>8 µg/mL
Cc1ccc(C)c(Sc2ncnc3nc[nH]c23)c1,NJ211,MIC,>12.8 µg/mL
CC1CN(c2cc3c(cc2F)c(=O)c(C(=O)O)cn3-c2ccc(F)cc2F)CCN1,25 isolates,MIC50,8 µg/mL

A second listing of 3 rows from above:

compound | strain | measure | value
CC[C@H]1OC(=O)[C@H](C)[C@@H](OC2C[C@@](C)(OC)[C@@H](O)[C@H](C)O2)[C@H](C)[C@@H](O[C@@H]2O[C@H](C)C[C@H](N(C)C)[C@H]2O)C(C)(O)C[C@@H](C)/C(=N\OCCOc2ccccc2)[C@H](C)[C@@H](O)[C@]1(C)O | 20096 (clarithromycin-resistant) | MIC | 25 µg/mL
CC[C@H]1OC(=O)C[C@@H](O)[C@H](C)[C@@H](O[C@@H]2O[C@H](C)[C@H](O[C@H]3C[C@@](C)(O)[C@@H](O)[C@H](C)O3)[C@H](N(C)C)[C@H]2O)[C@@H](CC=O)C[C@@H](C)C(=O)/C=C/C(C)=C/[C@@H]1CO | 28 strains | MIC90 | 32 µg/mL
CCC(=O)O[C@H]1[C@H](C)OC(O[C@H]2[C@H](C)[C@@H](O[C@@H]3O[C@H](C)C[C@H](N(C)C)[C@H]3O)C(C)(O)C[C@@H](C)/C(=N\OCCCOc3ccccc3)[C@H](C)[C@@H](O)[C@](C)(O)[C@@H](CC)OC(=O)[C@@H]2C)C[C@@]1(C)OC | 20092 (clarithromycin-resistant) | MIC | 0.78 µg/mL

Neighbouring rows are from separate reports.